Source: PubChem BioAssay AID504761 (Drosophila RNAi Screening Center, 2011)

Assay: 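Insect host genes that dengue virus relies on to spread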 (primary screen)
Cell system: D.Mel-2 cells from Drosophila
Knock-down reagent: long dsRNA against Drosophila genes
Challenge: infection with dengue virus type 2; dose and infection time not stated
Detection: 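Cells stained for dengue envelope protein and imaged; percent of infected cells per well on duplicate plates, ranked by infection, with stained nuclei counted for cell number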
Reading the numbers: infection score: higher = more virus-infected cells; cell count: higher = more cells in the well
Active means: 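Low infection ranks in the two replicates (chance level up to 0.065) followed by a retest with a 1.5-fold or larger significant decrease, p below 0.05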
Calls: active = confirmed: knock-down lowers infection; inactive = not picked or not confirmed
The deposit covers about 22,000 reagents; this is a random part of those with a known target gene and a result. In the full data, 116 (0.52%) are marked active. 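Calls depend on retest data that are not deposited; infection was ranked per plate without normalising between plates; the unit of the infection score is not given.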 The raw values are shown without normalisation. A number with no mark means an inactive call. The record does not give: the amount of reagent, the time to read-out.

| Target gene | DRSC id | infection score, replicate 1 | infection score, replicate 2 | cell count, replicate 1 | cell count, replicate 2 |
| --- | --- | --- | --- | --- | --- |
| CG31809 | DRSC01561 | 11.3 | 0.84 | 5613 | 5842 |
| jef | DRSC06198 | 9.22 | 7.53 | 2722 | 6604 |
| jef | DRSC24815 | 4.08 | 7.74 | 6293 | 6421 |
| Nup154 | DRSC03384 | 46.1 | 29.2 | 3755 | 4653 |
| Nup154 | DRSC26396 | 47.7 | 20.4 | 2239 | 3629 |
| Cdc23 | DRSC02708 | 15.9 | 1.17 | 5973 | 5828 |
| CG10139 | DRSC05972 | 12.6 | 15.5 | 6512 | 6304 |
| CG7377 | DRSC10830 | 0.98 | 10.2 | 6006 | 5730 |
| RyR | DRSC07543 | 26.4 | 19 | 6111 | 5712 |
| CG31663 | DRSC00078 | 0.95 | 0.73 | 6129 | 5908 |
| CG31663 | DRSC00389 | 19.2 | 17.9 | 5465 | 5099 |
| CG31663 | DRSC00390 | 12.4 | 24.4 | 5930 | 5083 |
| CG31663 | DRSC00393 | 5.39 | 14.8 | 6664 | 6612 |
| chrb | DRSC11335 | 20.9 | 21.1 | 5718 | 5580 |
| chrb | DRSC25273 | 6.15 | 4.29 | 5868 | 5897 |
| CG11350 | DRSC08181 | 4.94 | 2.22 | 6294 | 5776 |
| CG11350 | DRSC25083 | 11.5 | 7.51 | 5935 | 6057 |
| dmrt93B | DRSC15865 | 12 | 1.72 | 6089 | 6624 |
| dmrt93B | DRSC29931 | 4.9 | 2.69 | 6387 | 6252 |
| Jon25Biii | DRSC03115 | 11.8 | 9.11 | 4975 | 5698 |
| Jon25Biii | DRSC25069 | 7.7 | 7.13 | 5692 | 4823 |
| CG10809 | DRSC09802 | 0.38 | 2.45 | 6789 | 6447 |
| CG10809 | DRSC29041 | – | 1.97 | 344 | 1066 |
| Idh3b | DRSC16040 | 1.13 | 3.9 | 6614 | 5996 |
| Idh3b | DRSC28483 | 6.41 | 1.21 | 3776 | 1078 |
| CG4250 | DRSC04455 | 22.3 | – | 5147 | 424 |
| CG5070 | DRSC19932 | 1.93 | 0.63 | 6574 | 6717 |
| CG5070 | DRSC28082 | 14.1 | 9.93 | 6559 | 6064 |
| CG4021 | DRSC04439 | 8.51 | 14.3 | 7235 | 6695 |
| CG4021 | DRSC25492 | 11.8 | 7.6 | 6523 | 5660 |
| CR30409 | DRSC22058 | 5.75 | 4.28 | 6709 | 6807 |
| Sdr | DRSC15517 | 4.13 | 8.33 | 7261 | 4802 |
| Or19a | DRSC20684 | 3.41 | 0.83 | 5839 | 6036 |
| SF2 | DRSC16845 | 11.3 | 6.02 | 5141 | 830 |
| obst-B | DRSC01987 | 15 | 13.1 | 6471 | 6428 |
| AstCC | DRSC02404 | 3.27 | 9.83 | 6673 | 6447 |
| CG15115 | DRSC06537 | 6.73 | 2.8 | 6831 | 6353 |
| Nup58 | DRSC16235 | 4.93 | 11.8 | 5844 | 5117 |
| Nup58 | DRSC27863 | 2.11 (active) | 2.93 | 6210 | 6037 |
| CG12869 | DRSC06208 | 1.85 | 8.95 | 6971 | 5878 |
| HHEX | DRSC16186 | 19.2 | 2.55 | 4336 | 7031 |
| HHEX | DRSC29035 | 4.65 | – | 2278 | 346 |
| Hsc70-3 | DRSC20253 | 0.2 | 0.36 | 1483 | 1390 |
| Hsc70-3 | DRSC25105 | 0.68 | 0.84 | 4124 | 4027 |
| GILT1 | DRSC16565 | 9.85 | 4.28 | 6312 | 6512 |
| CG42365 | DRSC04266 | 3.71 | 3.59 | 6415 | 6915 |
| CG11406 | DRSC04010 | 1.21 | 0.32 | 6112 | 5598 |
| CG11406 | DRSC04108 | 1.5 | 5.74 | 6210 | 6189 |
| CG11095 | DRSC19375 | 16.2 | 10.6 | 6765 | 6497 |
| CG11095 | DRSC26123 | 10.3 | 2.89 | 5879 | 5990 |
| CG13560 | DRSC04198 | 3.52 | 3.85 | 6474 | 6804 |
| CG13560 | DRSC27479 | 16.8 | 9.65 | 2630 | 2756 |
| SP2353 | DRSC07545 | 10.4 | 5 | 6081 | 6860 |
| SP2353 | DRSC23895 | 0.98 | 0.88 | 6225 | 6568 |
| Pal1 | DRSC06106 | 2.99 | 7.59 | 5687 | 5939 |
| GILT3 | DRSC14672 | 13.3 | 12.2 | 5924 | 5083 |
| CG11771 | DRSC14379 | 9.29 | 5.61 | 5794 | 6417 |
| CG11771 | DRSC27732 | 3.09 | 18.2 | 6474 | 5937 |

Called active, among the entries above:
| Target gene | DRSC id | infection score, replicate 1 | infection score, replicate 2 | cell count, replicate 1 | cell count, replicate 2 |
| --- | --- | --- | --- | --- | --- |
| Nup58 | DRSC27863 | 2.11 (active) | 2.93 | 6210 | 6037 |
